Results on one sequence are retold here after publication PMC12880088.

Negatives hold for the conditions tested.

For the data set, the target named is rYeiE (YeiE-Strep-tag II) (UniProt Q8ZNK8). As to the kind of experiment: EMSA. Particulars: 800 nM rYeiE, 40 ng DNA; 150 mM KCl, 0.1 mM DTT, 0.1 mM EDTA, 10 mM Tris pH 7.4, 20 min at room temperature; 6% native PAGE, SYBR Green; recombinant protein; residues 1-287; probe letters rebuilt from the primers and the genome. (In general: A gel shift assay detects complexes by their altered migration in electrophoresis.)

For the sequence “ATATGACAAATTGATGTCATAAATGTGTTTTAGCAACTCGGATGTATGCATTGTTCCCATCCAGAATAACCAACTTTATTTTTGTGCGACGTAGCCGCACCCCGTGATGTCGCCGGGAAGGCCCGGTAAAAGAAGCAAAAAGGTCAAATGCATAGCAGCGCTCAGACATTATGGACATTGTGACGTATAACGCAGCCTCCCACTGAGATTCGCCTTACACGTTTACATCAATTTTTACAAATGCCTAAGATTTTTCCTAATTCGACGCAACTCTACTCGTCAGCTTCGTGACATACAACG (double strand) [PflhD]”, the binding result was “no binding”.
